Measured values from several laboratories, pooled; numbers as filed in NIAID ChemDB.

Common to all: tests in culture; agent: Influenza A virus; cell line: MDCK; read by: cytopathic effect; read-out: EC50

ECn: concentration that inhibits the pathogen or its effect by n%. Neighbouring rows are from separate reports.

C=C(N=CC)c1nc(-c2ccccc2)n(C2O[C@H](CO)[C@@H](O)[C@H](O)[C@H]2O)n1 ; strain or isolate: Ishikawa ; value: >200 µg/mL
CCCOc1ncn(-c2ccc(NC(=S)NC34CC5CC(CC(C5)C3)C4)cc2)n1 ; strain or isolate: Ishikawa ; value: 20 µg/mL
CC=NC(=N)c1nc(-c2cccc(OC)c2)n(Cc2ccccc2)n1 ; strain or isolate: Ishikawa ; value: >100 µg/mL
C1=CCC2(CC1)COC(c1ccco1)OC2 ; strain or isolate: B/Singapore/222/79 ; value: >500 µg/mL
O=[N+]([O-])c1c(N2CC[N+]3(CC2)CC[N+]2(CCNCC2)CC3)ncnc1N1CC[N+]2(CC1)CC[N+]1(CCN(c3ncnc(N4CC[N+]5(CC4)CC[N+]4(CCNCC4)CC5)c3[N+](=O)[O-])CC1)CC2 ; value: >70 µg/mL
Cc1cc(C)cc(C(=S)NC[C@@]2(C)C[C@@H](O)CC(C)(C)C2)c1 ; strain or isolate: H1N1 A/WSN/33 ; value: >10 µg/mL
CCOc1ncn(-c2ccc(NC(=S)Nc3cccc(O)c3)cc2)n1 ; strain or isolate: Ishikawa ; value: 100 µg/mL
CC1(C)C[C@H](O)C[C@](C)(CNC(=S)c2cccc(Cl)c2)C1 ; strain or isolate: H1N1 A/WSN/33 ; value: >10 µg/mL
C=C(N=CC)c1nc(-c2cccc(OC)c2)n(C2O[C@H](CO)[C@@H](O)[C@H](O)[C@H]2O)n1 ; strain or isolate: Ishikawa ; value: >200 µg/mL
CN(C)C(=O)COC(=O)Cc1ccc(OC(=O)c2ccc(N=C(N)N)cc2)cc1.COS(=O)(=O)O ; strain or isolate: Influenza A/Ishikawa/7/82 (H3N2) ; value: 2.2 µg/mL
C1CN(CC2CO2)CC[N+]2(C1)CC[N+]1(CCCN(CC3CO3)CC1)CC2 ; value: >70 µg/mL
Cc1cccc(C(=S)NC[C@@]2(C)C[C@@H](O)CC(C)(C)C2)c1 ; strain or isolate: H1N1 A/WSN/33 ; value: >10 µg/mL
C=C(N=CC)c1nc(-c2ccc(C)cc2)n(C2O[C@H](CO)[C@@H](O)[C@H](O)[C@H]2O)n1 ; strain or isolate: Ishikawa ; value: >200 µg/mL
CC1(C)C[C@H](O)C[C@](C)(CNC(=S)c2ccccc2)C1 ; strain or isolate: H1N1 A/WSN/33 ; value: >10 µg/mL
C=C(N=CC)c1nc(-c2cccc(C)c2)n([C@@H]2O[C@H](CO)[C@@H](O)[C@H]2O)n1 ; strain or isolate: Ishikawa ; value: >100 µg/mL
N#C/C(=C(\N)N1CC[N+]2(CC1)CC[N+]1(CCN(/C(N)=C(/C#N)[N+](=O)[O-])CC1)CC2)[N+](=O)[O-] ; value: >70 µg/mL
CCCCCCCCCCCCCCCCO[C@H]1N([C@H]2C[C@H](N=[N+]=[N-])[C@@H](CO)O2)C(=O)NC(=O)[C@]1(C)Br ; strain or isolate: Influenza A/Ishikawa/7/82 (H3N2) ; value: >500 µg/mL
O=[N+]([O-])c1c(Cl)nc(C(F)(F)F)nc1N1CC[N+]2(CC1)CC[N+]1(CCN(c3nc(C(F)(F)F)nc(Cl)c3[N+](=O)[O-])CC1)CC2 ; value: >70 µg/mL
COc1ccccc1C(=S)NC[C@@]1(C)C[C@@H](O)CC(C)(C)C1 ; strain or isolate: H1N1 A/WSN/33 ; value: >10 µg/mL
CC=NC(=N)c1nc(-c2ccccc2)n(COCCO)n1 ; strain or isolate: Ishikawa ; value: >100 µg/mL
CCOc1ncn(-c2ccc(NC(=S)Nc3cnccn3)cc2)n1 ; strain or isolate: Ishikawa ; value: >20 µg/mL
O=[N+]([O-])c1c(N2CC[N+]3(CC2)CC[N+]2(CCNCC2)CC3)ncnc1N1CC[N+]2(CC1)CC[N+]1(CCNCC1)CC2 ; value: >70 µg/mL
CC=NC(=N)c1nc(-c2ccccc2)n(Cc2ccccc2)n1 ; strain or isolate: Ishikawa ; value: >20 µg/mL
CCOc1ncn(-c2ccc(NC(=S)NC34CC5CC(CC(C5)C3)C4)cc2)n1 ; strain or isolate: Ishikawa ; value: 20 µg/mL
CC=NC(=N)c1nc(-c2ccc(C)cc2)n(C/C=C/c2ccccc2)n1 ; strain or isolate: Ishikawa ; value: >20 µg/mL
CCC(CC)[C@H](NC(C)=O)[C@@H]1[C@H](O)[C@@H](C(=O)O)C[C@H]1N=C(N)N ; strain or isolate: Influenza A/Shandong/09/03 (H3N2) ; value: 0.007 µM

The first 2 rows once more:

structure	strain or isolate	value
C=C(N=CC)c1nc(-c2ccccc2)n(C2O[C@H](CO)[C@@H](O)[C@H](O)[C@H]2O)n1	Ishikawa	>200 µg/mL
CCCOc1ncn(-c2ccc(NC(=S)NC34CC5CC(CC(C5)C3)C4)cc2)n1	Ishikawa	20 µg/mL